Compound potency records, mixed from different reports. Data source: NIAID ChemDB in PubChem.

Shared fields: whole-cell or culture tests; agent: HIV-1; read-out: fold resistance

Conditions beyond the fields shown may differ between rows. Blank or dashed fields: not listed here. Fold resistance has wild type as its base.

compound,cells,strain or isolate,read by,changes,result
Cc1cn([C@H]2C[C@H](N=[N+]=[N-])[C@@H](CO)O2)c(=O)[nH]c1=O,CEM + CEM-SS,IIIB,cytopathic effect / XTT,RT-V108I,0.8
Nc1ccn([C@H]2CC[C@@H](CO)O2)c(=O)n1,HT4 + HT4 LacZ-1,RTMC(181 184) (RT 67N 70R Y181C M184V T215F K219Q),plaque count,RT-D67N K70R Y181C M184V T215F K219Q,3.96
Cc1ccccc1CNC(=O)[C@H]1N(C(=O)[C@@H](O)[C@H](Cc2ccccc2)NC(=O)c2cccc(O)c2C)CSC1(C)C,PBMC,052-52 PI-resistant,RT activity,PR-L10R M46I L63P A71V V82T I84V,1
CCOCn1c(Cc2cc(C)cc(C)c2)c(CC)c(=O)[nH]c1=O,CEM,IIIB,syncytia,RT-Y181C,133
Cc1cccc(C)c1OCC(=O)N[C@@H](Cc1ccccc1)[C@@H](O)C[C@H](Cc1ccccc1)NC(=O)[C@H](C(C)C)N1CCCNC1=O,,,,RT-L100I K103N,4294
CCc1c(Sc2ccccn2)n(COCc2ccccc2)c(=O)[nH]c1=O,CEM + CEM-SS,IIIB,cytopathic effect / XTT,RT-Y181C,60
CC(C)CN(C[C@@H](O)[C@H](Cc1ccccc1)NC(=O)O[C@H]1CCOC1)S(=O)(=O)c1ccc(N)cc1,PBMC,052-52 PI-resistant,RT activity,PR-L10R M46I L63P A71V V82T I84V,21
CC(C)Nc1cccnc1N1CCN(C(=O)c2cc3ccccc3[nH]2)CC1,CEM,IIIB,syncytia,RT-E138K,2.25
Nc1nc2c(ncn2[C@H]2CO[C@@H](CO)O2)c(=O)[nH]1,,,,RT-M41L D67N V106A M184V T215Y,~1.2
Nc1nc(=O)n([C@@H]2CS[C@H](CO)O2)cc1F,HT4 + HT4 LacZ-1,RTMC (RT D67N K70R T215F K219Q),plaque count,RT-D67N K70R T215F K219Q,7.11
Nc1ccn([C@@H]2CC[C@H](CO)O2)c(=O)n1,HT4 + HT4 LacZ-1,74V (RT-L74V),,RT-L74V,1.24
CCN(c1nc(F)ccc1NC(C)(C)C)C1CCN(C(=O)c2cc3cc(NC(=O)N4CCN(C)CC4)ccc3[nH]2)CC1,MT-2,IIIB,p24 / ELISA,L441P,1.2
CCn1c(=O)c(C)cn([C@@H]2O[C@H](CO[Si](C)(C)C(C)(C)C)C3(OS(=O)(=O)C=C3N)[C@H]2O[Si](C)(C)C(C)(C)C)c1=O,CEM,IIIB,syncytia,RT-E138K,>833
CCOP(=O)(COc1ccc(C[C@H](NC(=O)O[C@H]2CO[C@H]3OCC[C@H]32)[C@H](O)CN(CC(C)C)S(=O)(=O)c2ccc(OC)cc2)cc1)OCC,MT-2,IIIB,ATP,ATV-P36 atazanavir-resistant mutant,0.5
CC(C)=CCN1c2cc(Cl)cc3[nH]c(=S)n(c23)C[C@@H]1C,MT-4,,,RT-M41L T215Y A98G,8
Nc1nc2c(ncn2[C@H]2CO[C@@H](CO)O2)c(=O)[nH]1,MT-2,,cytopathic effect / XTT,RT-K65R,6
COc1ccc(C[C@H](NC(=O)c2cccc(O)c2C)[C@H](O)C(=O)N2CSC(C)(C)[C@H]2C(=O)NCc2ccccc2C)cc1,PBMC,1026-40 PI-resistant,RT activity,PR-L10I M46I I54V L63P A71V V82A L90M,15
Cc1ccccc1CNC(=O)[C@H]1N(C[C@@H](O)C[C@@H](Cc2ccccc2)C(=O)N[C@H]2c3ccccc3OC[C@H]2O)CSC1(C)C,MT-4,,p24,PR-K60C,>4
Cc1ccnc2c1NC(=O)c1cccnc1N2C1CC1,MT-2,A17-(RT-K103N Y181C) NNRTI-resistant,cytopathic effect,RT-K103N Y181C,450
CCc1cc([C@](C#CC2CC2)(OCc2ccccc2)C(F)(F)F)c(=O)[nH]c1C,,,,RT-L100I K103N,14.52
Nc1nc(=O)n([C@@H]2CS[C@H](CO)O2)cc1F,HT4 + HT4 LacZ-1,184V (RT-M184V),,RT-M184V,>1250
CC(C)(C)NC(=O)[C@@H]1C[C@@H]2CCCC[C@@H]2CN1C[C@@H](O)[C@H](Cc1ccccc1)NC(=O)[C@H](CC(N)=O)NC(=O)c1ccc2ccccc2n1,,BMS-186318-resistant (PR A71T V82A),,PR-A71T V82A,2.03
CCc1c(Sc2ccccc2)n(COCc2ccccc2)c(=O)[nH]c1=O,CEM,IIIB,syncytia,RT-C181I,31.8
c1cc(CN2CCCNCCNCCCNCC2)ccc1CN1CCCNCCNCCCNCC1,MT-4,NL4-3,,L-CA resistant,2
Nc1nc(N)c2ncn([C@H]3CO[C@@H](CO)O3)c2n1,MT-2,,cytopathic effect / XTT,RT-K65R Q151M,10
Cc1cccc(C)c1OCC(=O)N[C@@H](Cc1ccccc1)[C@@H](O)C[C@H](Cc1ccccc1)NC(=O)[C@H](C(C)C)N1CCCNC1=O,PBMC,1026-40 PI-resistant,RT activity,PR-L10I M46I I54V L63P A71V V82A L90M,306
Cc1ccc(S(=O)(=O)N(CC(C)C)C[C@@H](O)[C@H](Cc2ccccc2)NC(=O)O[C@H]2CO[C@H]3OCC[C@H]32)cc1,MT-2,IIIB,ATP,ATV-P36 darunavir-resistant mutant,0.5
Fc1cccc(F)c1C1SCc2nc3ccccc3n21,,IIIB,cytopathic effect / MTT,RT-Y188H,2.99
COc1cccc(C[C@H](NC(=O)c2cccc(O)c2C)[C@H](O)C(=O)N2CSC(C)(C)[C@H]2C(=O)NCc2c(C)cccc2C)c1,PBMC,052-52 PI-resistant,RT activity,PR-L10R M46I L63P A71V V82T I84V,<1

A second listing of 3 rows from above:

compound,cells,strain or isolate,read by,changes,result
CCc1c(Sc2ccccn2)n(COCc2ccccc2)c(=O)[nH]c1=O,CEM + CEM-SS,IIIB,cytopathic effect / XTT,RT-Y181C,60
CCOP(=O)(COc1ccc(C[C@H](NC(=O)O[C@H]2CO[C@H]3OCC[C@H]32)[C@H](O)CN(CC(C)C)S(=O)(=O)c2ccc(OC)cc2)cc1)OCC,MT-2,IIIB,ATP,ATV-P36 atazanavir-resistant mutant,0.5
CCc1cc([C@](C#CC2CC2)(OCc2ccccc2)C(F)(F)F)c(=O)[nH]c1C,,,,RT-L100I K103N,14.52